From PMC4416901, “The Mycobacterium tuberculosis ClpP1P2 Protease Interacts Asymmetrically with Its ATPase Partners ClpX and ClpC1” (PLoS ONE, 2015)

Target: the molecule itself
Test: SEC

B1: Δ15NClpP2 (mClpP2 shortened by another three residues beyond the processing site) (enzyme)
chain: not shown
notes: Mtb ClpP2 lacking the first 15 residues (12 of the propeptide and three more)
binding result: binds
